Assay results taken from article PMC5034337 (Scientific Reports, 2016).

What was measured:
[1] = system: mammalian ribosomes; conditions: read-out: IC50, inhibition of in vitro translation (production of the reporter protein reduced to 50%); rabbit reticulocyte lysate, six independent experiments
[2] = first morning urine, Croatian pregnant women; cited from earlier work
[3] = system: T24 bladder cancer cells; assay: Sulforhodamine B (SRB) assay, T24; conditions: T24, 24 h
[4] = system: HT-29 colon carcinoma cells; assay: Sulforhodamine B (SRB) assay, HT-29; conditions: HT-29, 24 h
[5] = system: Caco-2 cells; assay: Sulforhodamine B (SRB) assay, Caco-2; conditions: Caco-2, 24 h
[6] = system: primary human colon epithelial cells (HCEC-1CT); assay: Sulforhodamine B (SRB) assay, HCEC-1CT; conditions: 24 h
[7] = Eight-day duplicate diet case study, 24 h urine of one volunteer (LC-MS/MS)
[8] = system: HT-29 cells; assay: Cellular metabolism (deconjugation) in HT-29 cells, LC-MS/MS of supernatant and cell lysate; conditions: HT-29 cells incubated with 10 μM for 0, 3, 24 and 48 h
[9] = system: wheat ribosomes; conditions: read-out: IC50 on wheat ribosomes; cited from earlier work
[10] = Average of days 3-6, as DON equivalents

CC1=C[C@H]2O[C@@H]3[C@H](O)C[C@](C)([C@@]2(CO)[C@H](O)C1=O)[C@]31CO1 [DON, deoxynivalenol]
pIC50 [1]: 5.82

DON-3-glucuronide
maximum urinary concentration [2]: 298 µg/L

DON-15-glucuronide
maximum urinary concentration [2]: 1238 µg/L

CC1=CC2OC3C(OS(=O)(=O)O)CC(C)(C34CO4)C2(CO)C(O)C1=O (centres unmarked)
maximum urinary concentration (first morning urine, Croatian pregnant women, n = 40): 58 µg/L
share of urine samples in which the conjugate was quantified (first morning urine, Croatian pregnant women, n = 40 (28 out of 40)): 70%
maximum urinary concentration (first morning urine, Croatian pregnant women, corresponds to 58 μg/L): 0.15 µM
pIC50 [1]: < 4.00
cytotoxic effect [3]: did not exert cytotoxic effects
lowest concentration at which the proliferative effect was present [3]: 0.1 nM
cytotoxic effect [4]: did not exert cytotoxic effects
cytotoxic effect [5]: did not exert cytotoxic effects
proliferative stimulus [5]: not significant
cytotoxic effect [6]: did not exert cytotoxic effects
lowest concentration at which the proliferative effect was present [6]: 0.1 nM
DON-3-sulfate excreted per day ([7]; Average of days 3-6): 0.02 µmol/day
DON-3-sulfate excreted per day [7, 10]: 4.9 µg/day
DON-3-sulfate in urine [7, 10]: 2.1 µg/L
DON-3-sulfate excreted per day ([7]; Day 3): 0.02 µmol/day
DON-3-sulfate in urine ([7]; Day 3, high DON diet 138 μg/d, as DON equivalents): 2.8 µg/L
DON-3-sulfate excreted per day ([7]; Day 3, as DON equivalents): 6.0 µg/day
DON-3-sulfate excreted per day ([7]; Day 4): 0.01 µmol/day
DON-3-sulfate in urine ([7]; Day 4, high DON diet 138 μg/d, as DON equivalents): 1.0 µg/L
DON-3-sulfate excreted per day ([7]; Day 4, as DON equivalents): 2.8 µg/day
DON-3-sulfate excreted per day ([7]; Day 5): 0.02 µmol/day
DON-3-sulfate in urine ([7]; Day 5, high DON diet 138 μg/d, as DON equivalents): 2.2 µg/L
DON-3-sulfate excreted per day ([7]; Day 5, as DON equivalents): 4.8 µg/day
DON-3-sulfate excreted per day ([7]; Day 6): 0.02 µmol/day
DON-3-sulfate in urine ([7]; Day 6, high DON diet 138 μg/d, as DON equivalents): 2.3 µg/L
DON-3-sulfate excreted per day ([7]; Day 6, as DON equivalents): 5.9 µg/day
DON-3-sulfate in urine ([7]; Day 7, first day after DON diet was stopped, as DON equivalents): absence
urinary 24 h excretion rate, of the DON quantity ingested through contaminated food ([7]; volunteer, 138 μg DON per day over four days, estimate in text): approximately 4%
free DON formed by hydrolysis of the conjugate [8]: neither detected in the supernatant nor in the cell lysate

CC1=CC2OC3C(O)CC(C)(C34CO4)C2(COS(=O)(=O)O)C(O)C1=O (centres unmarked)
detection in urine samples (Croatian urine samples): no DON-15-sulfate was detected in any sample
pIC50 [1]: 4.33
pIC50 [9]: 4.18
cytotoxic effect [3]: only a limited effect
proliferative stimulus [5]: not significant
free DON formed by hydrolysis of the conjugate [8]: neither detected in the supernatant nor in the cell lysate

pIC50: −log10 of the molar value. Where two headings read alike, the source gives them in different places.
